Compound potency records, mixed from different reports. Data source: NIAID ChemDB in PubChem.

Common to all: whole-cell or culture tests; agent: Hepatitis B virus; read-out: EC50

ECn is the concentration giving n% inhibition of infection, replication or growth.

structure,read by,strain or isolate,cells,value
Cn1nc2cc(NS(=O)(=O)c3cnn(-c4ncccc4N)c3)ccc2c1C(=O)Nc1ccc(F)c(Cl)c1,PCR,-,HepAD38,<100 µM
CC(C)[C@H](N)C(=O)OCNC(=O)c1ccc(-n2c(=O)c3c(n4ncc(CC5CC5)c24)CN(C(=O)c2ccc(Br)c(C(F)(F)F)c2)C(C)C3)cc1,luminescence,-,HepG2.117,≤0.05 µM
CCC1=C(C(=O)OC)C(c2ccccc2Cl)N=C(c2ccccn2)N1,-,-,HepG2.2.15,6–10 µM
CCNC(=O)C(=O)N1CCC(NS(=O)(=O)c2cn(CC(F)F)c(C(=O)Nc3ccc(F)c(F)c3)c2F)CC1,PCR,-,HepAD38 cells,<0.1 µM
Cc1cc(NC(=O)c2c(C)c(C(=O)C(=O)NC(C)(C)c3ccc4nc[nH]c4c3)c(C)n2C)ccc1F,PCR,-,HepG2.2.15,0.001–0.0099 µM
CNc1n[nH]c2cc(-n3c(=O)c4c(n5ncc(CC(C)C)c35)CN(C(=O)c3ccc(Cl)c(C(F)(F)F)c3)[C@@H](C)C4)ccc12,luminescence,-,HepG2.117,0.05–0.5 µM
CCS(=O)(=O)N1CCC2(NS(=O)(=O)c3cn(C)c(C(=O)Nc4ccc(F)c(F)c4)c3F)CC2C1,PCR,-,HepAD38 cells,<0.1 µM
Cc1cc(NC(=O)c2c3c(cn2C)S(=O)(=O)N[C@H]2CN(C(=O)C(=O)NC4CCC4)C[C@H]2CO3)ccc1F,PCR,-,HepAD38,<0.5 µM
CNS(=O)(=O)N[C@@H]1CCN(S(=O)(=O)c2cn(C)c(C(=O)Nc3cc(F)c(F)c(F)c3)c2F)C1,PCR,-,HepAD38 cells,0.3–1 µM
O=C(NCc1ccc(OC(F)F)cc1F)c1c2n(c(=O)n1-c1ccc(OCC(F)(F)F)cc1)CCN(C(=O)c1ccc(Br)c(Cl)c1)C2,PCR,-,HepG2.117,0.5–5 µM
Cn1nc2cc(NS(=O)(=O)N3CC[C@H](O)C3)ccc2c1C(=O)Nc1ccc(F)c(Cl)c1,PCR,-,HepAD38,100–1000 µM
NC(=O)COc1ccc(CNC(=O)c2c3n(c(=O)n2-c2ccc(OC4CC4)cc2)CCN(C(=O)c2ccc(Br)c(Cl)c2)C3)c(F)c1,PCR,-,HepG2.117,0.1–0.5 µM
Cc1ccc(NCc2nnc(SCC(=O)NN)n2-c2ccccc2)cc1,ELISA,-,HepG2 2.2.15,1 µM
CCOC(=O)C1=C(C)NC(c2ncc(F)cc2F)=NC1c1ccc(F)cc1Cl,-,-,HepG2.2.15,0.05 µM
Cc1nn(C)c(C)c1S(=O)(=O)Nc1ccc2c(C(=O)Nc3ccc(F)c(Cl)c3)n(C)nc2c1,PCR,-,HepAD38,100–1000 µM
COC(=O)CCC1=C(C(=O)OC)C(c2ccccc2Cl)N=C(c2ccccn2)N1,-,-,HepG2.2.15,>100 µM
CCNC(=O)C(=O)N1CCC(NS(=O)(=O)c2c(F)c(C(=O)Nc3ccc(F)c(F)c3)n(C)c2C)CC1,PCR,-,HepAD38 cells,<0.1 µM
Cn1cc2c(c1C(=O)Nc1ccc(F)c(C#N)c1)OC[C@@H]1CN(C(=O)C(=O)NC3(C)COC3)C[C@@H]1NS2(=O)=O,PCR,-,HepAD38,>0.5 µM
C#C[C@](CO)(NC(=O)C(=O)c1c(C)c(C(=O)Nc2ccc(F)c(C#N)c2)n(C)c1C)C(F)(F)F,PCR,-,HepG2.2.15,0.001–0.0099 µM
COC(C)C(=O)Nc1ccc(-c2nc3cccnc3o2)cc1,antigen / luminescence,-,Primary human hepatocytes (PHH),1.61 µM
COc1ccc(-n2c(C(=O)N[C@H](C)c3ccccc3F)c3n(c2=O)CCN(C(=O)c2ccc(Br)c(Cl)c2)C3)cc1,PCR,-,HepG2.117,<0.1 µM
Cc1c(C(=O)C(=O)NC(C)(C)c2cscn2)c(C)n(C)c1C(=O)Nc1ccc(F)c(C#N)c1,PCR,-,HepG2.2.15,0.001–0.0099 µM
C=CCn1c(=O)c(-c2cc(CO)n(-c3ccccc3)n2)nc2ccccc21,ELISA,-,HepG2 2.2.15,1.1 µM
Cn1nc2cc(NS(=O)(=O)NCc3cccc(N)n3)ccc2c1C(=O)Nc1ccc(F)c(Cl)c1,PCR,-,HepAD38,100–1000 µM
Cc1ccc(NCc2nnc(Nc3ccccc3)s2)cc1,ELISA,-,HepG2 2.2.15,52 µM
CNC(=O)c1cnc(-n2c(=O)c3c(n4ncc(CC(C)C)c24)CN(C(=O)c2ccc(Br)c(C(F)(F)F)c2)[C@H](C)C3)nc1,luminescence,-,HepG2.117,≤0.05 µM
COCCOC(=O)C1=C(C)NC(c2ccccn2)=NC1c1ccccc1Cl,-,-,HepG2.2.15,>50 µM
Cc1cc(NC(=O)c2c3c(cn2C)S(=O)(=O)NC2CN(C(=O)C(=O)NC4CC4)CCC2CO3)ccc1F,PCR,-,HepAD38,<0.5 µM
Nc1ncnc2c1nc(Cl)n2[C@H]1CC[C@@H](CO)C1,hybridisation,-,HepG2 2.2.15,12 µM
COc1ccc(-n2c(C(=O)NCc3ncccn3)c3n(c2=O)CCN(C(=O)c2ccc(Br)c(Cl)c2)C3)cc1,PCR,-,HepG2.117,>5 µM
COC(=O)c1cc2c(OC)cc(N)cc2o1,-,-,-,4.19 µg/mL
Cc1nc(-c2ccc(-n3c(=O)c4c(n5ncc(Cc6ccccc6)c35)CN(C(=O)c3ccc(Br)c(C(F)(F)F)c3)[C@@H](C)C4)cc2)n[nH]1,luminescence,-,HepG2.117,≤0.05 µM
Nc1ncnc2c1nc(I)n2[C@H]1CC[C@@H](CO)C1,hybridisation,-,HepG2 2.2.15,1.3 µM
COC(=O)c1cc2c(OC)c(N)ccc2[nH]1,-,-,-,2.13 µg/mL
O=C(CSc1nnc(CNc2ccccc2)n1-c1ccccc1)NN=CC(O)C(O)C(O)C(O)CO,ELISA,-,HepG2 2.2.15,64 µM
C#C[C@H](NC(=O)C(=O)c1c(C)c(C(=O)Nc2ccc(F)c(C(F)(F)F)c2)n(C)c1C)C1CC1,PCR,-,HepG2.2.15,<0.001 µM
COC(=O)c1cc2c(OC)cc(C(N)=O)cc2[nH]1,-,-,-,0.14 µg/mL
Cc1cc(NC(=O)c2c3c(cn2C)S(=O)(=O)N[C@H]2CN(C(=O)C(=O)N[C@@H](C)C(F)(F)F)C[C@H]2CS3)ccc1F,PCR,-,HepAD38,<0.5 µM
Cn1ncc(NS(=O)(=O)c2ccc3c(C(=O)Nc4ccc(F)c(Cl)c4)n(C)nc3c2)c1Cl,PCR,-,HepAD38,100–1000 µM
CNC(=O)c1ccc(-n2c(=O)c3c(n4ncc(CC5CCC5)c24)CN(C(=O)c2ccc(Br)c(C(F)(F)F)c2)[C@@H](C)C3)cc1,luminescence,-,HepG2.117,0.05–0.5 µM
COC(=O)c1cc2c(OC)c(CC=C(C)C)c(N)cc2[nH]1,-,-,-,0.09 µg/mL
Nc1ccn([C@@H]2CS[C@H](CO)O2)c(=O)n1,ELISA,-,HepG2 2.2.15,<0.1 µM
Cc1cc(NC(=O)c2c3c(cn2C)S(=O)(=O)N[C@H]2CN(C(=O)C(=O)NCC(C)C)C[C@H]2CO3)ccc1F,PCR,-,HepAD38,<0.5 µM
Nc1ccn([C@@H]2CS[C@@H](CO)O2)c(=O)n1,-,-,CEM,>5 µM
COC(=O)c1cc2c(OC)cc(N)cc2[nH]1,-,-,-,6.14 µg/mL
Cn1cncc1-c1ccc(-n2c(=O)c3c(n4ncc(Cc5ccccc5)c24)CN(C(=O)c2ccc(Br)c(C(F)(F)F)c2)CC3)cc1,luminescence,-,HepG2.117,≤0.05 µM
COC(=O)C1=C(COCCN)NC(c2ccccn2)=NC1c1ccccc1Cl,-,-,HepG2.2.15,>100 µM
COc1ccc(-n2c(C(=O)NCc3cccc(C(F)(F)F)c3)c3n(c2=O)CCN(C(=O)c2ccc(Br)c(Cl)c2)C3)cc1,PCR,-,HepG2.117,0.1–0.5 µM
CCC[C@H](Nc1nc(-c2ccc(NC(=O)NCC)c(OC)c2)ncc1C)c1cccnc1,PCR,Genotype D,HepG2 2.2.15,0.0601 µM
Cn1nc2cc(NS(=O)(=O)NCC(=O)O)ccc2c1C(=O)Nc1ccc(F)c(Cl)c1,PCR,-,HepAD38,>1000 µM
CCOC(=O)CSc1nnc(CNc2ccc(F)cc2)n1-c1ccccc1,ELISA,-,HepG2 2.2.15,23.4 µM
OC[C@H]1OC2OC[C@H](c3ccc(O)c(O)c3)OC2[C@@H](O[C@@H]2OC[C@](O)(CO)[C@H]2O)[C@@H]1O,ELISA / antigen,-,HepG2.2.15,930 µM
C[C@@H]1Cn2c(c(C(=O)NCc3ccccc3-n3cccn3)n(-c3ccc(OC4CC4)cc3)c2=O)CN1C(=O)c1ccc(Br)c(Cl)c1,PCR,-,HepG2.117,0.1–0.5 µM
C[C@H]1Cc2c(n3ncc(Cc4ccccc4)c3n(-c3ccc(-c4nc(=O)on4C)cc3)c2=O)CN1C(=O)c1ccc(Br)c(C(F)(F)F)c1,luminescence,-,HepG2.117,≤0.05 µM
COC(=O)c1cc2cc(N)cc(OC)c2[nH]1,-,-,-,0.89 µg/mL
Cn1nc2cc(NS(=O)(=O)N(CC3CC3)C3CC3)ccc2c1C(=O)Nc1ccc(F)c(Cl)c1,PCR,-,HepAD38,100–1000 µM
Nc1ncnc2c1ncn2[C@H]1CC[C@@H](CO)C1,hybridisation,-,HepG2 2.2.15,33 µM
COc1ccc(-n2c(C(=O)N[C@@H](C)c3ccccc3F)c3n(c2=O)CCN(C(=O)c2ccc(Br)c(Cl)c2)C3)cc1,PCR,-,HepG2.117,0.1–0.5 µM
Cc1n[nH]nc1-c1ccc(-n2c(=O)c3c(n4ncc(CC(C)C)c24)CN(C(=O)c2ccc(Br)c(C(F)(F)F)c2)[C@@H](C)C3)cc1,luminescence,-,HepG2.117,0.05–0.5 µM
Cn1nc2cc(NS(=O)(=O)CC(=O)NC3CC3)ccc2c1C(=O)Nc1ccc(F)c(Cl)c1,PCR,-,HepAD38,>1000 µM
Cc1c(C(=O)C(=O)NC(C)(C)c2cnn(C)c2)c(C)n(C)c1C(=O)Nc1ccc(F)c(C(F)(F)F)c1,PCR,-,HepG2.2.15,<0.001 µM
Cc1cc(NC(=O)c2c3c(cn2C)S(=O)(=O)N[C@H]2CN(C(=O)C(=O)N[C@H](C)C(F)(F)F)C[C@H]2CO3)ccc1F,PCR,Genotype C,HepG2,0.00072 µM
CC(C)Oc1ccc(-n2c(C(=O)NCc3ccccc3)c3n(c2=O)CCN(C(=O)c2ccc(Cl)c(Cl)c2)C3)cc1,PCR,-,HepG2.117,0.5–5 µM
COC(=O)C1=C(c2cccc(OC)c2)NC(c2ccccn2)=NC1c1ccccc1Cl,-,-,HepG2.2.15,>100 µM
Cc1c(C(=O)C(=O)NC(C)(C)c2ccc(F)cn2)c(C)n(C)c1C(=O)Nc1ccc(F)c(C(F)(F)F)c1,PCR,-,HepG2.2.15,0.001–0.0099 µM
Nc1ncnc2c1nc(Br)n2[C@H]1CC[C@@H](CO)C1,hybridisation,-,HepG2 2.2.15,2 µM
COC(=O)C1=C(C)NC(c2ncccc2N)=N[C@H]1c1ccc(F)cc1Cl,-,-,HepG2.2.15,>100 µM
Nc1ccn([C@@H]2CS[C@H](CO)O2)c(=O)n1,ELISA / antigen,-,HepG2.2.15,1530 µM
[N-]=[N+]=NCCc1c(Cl)nc2ccc(Cl)cc2c1-c1ccccc1Cl,ELISA / antigen,-,HepG2.2.15,2510 µM
COC(=O)C1=C(C=O)NC(c2ccccn2)=NC1c1ccccc1Cl,-,-,HepG2.2.15,>12 µM

For reference, 5 entries again:

{"structure": "O=C(NCc1ccc(OC(F)F)cc1F)c1c2n(c(=O)n1-c1ccc(OCC(F)(F)F)cc1)CCN(C(=O)c1ccc(Br)c(Cl)c1)C2", "read by": "PCR", "cells": "HepG2.117", "value": "0.5–5 µM"}
{"structure": "CNC(=O)c1cnc(-n2c(=O)c3c(n4ncc(CC(C)C)c24)CN(C(=O)c2ccc(Br)c(C(F)(F)F)c2)[C@H](C)C3)nc1", "read by": "luminescence", "cells": "HepG2.117", "value": "≤0.05 µM"}
{"structure": "[N-]=[N+]=NCCc1c(Cl)nc2ccc(Cl)cc2c1-c1ccccc1Cl", "read by": "ELISA / antigen", "cells": "HepG2.2.15", "value": "2510 µM"}
{"structure": "Cn1nc2cc(NS(=O)(=O)N3CC[C@H](O)C3)ccc2c1C(=O)Nc1ccc(F)c(Cl)c1", "read by": "PCR", "cells": "HepAD38", "value": "100–1000 µM"}
{"structure": "Cc1ccc(NCc2nnc(Nc3ccccc3)s2)cc1", "read by": "ELISA", "cells": "HepG2 2.2.15", "value": "52 µM"}

An empty or dashed field is not shown. a–b is a range or a potency band. Rows are shuffled and stem from different studies.